Assay results published in patent US11365207B2, “Sulfur-containing polycyclic-hydroxypyridone carboxamide analog against HIV” (priority 2018, dated 2022).

How the values were obtained:
HIV-1IIIB [1] = test: Inhibition experiment for cytopathic effect (CPE) of HIV-1IIIB, syncytia formation in C8166 cells; assay type: cell-based; details: TI=CC50/EC50, EC50 from cpe experiment
Procedure: (§1) Human T lymphocytic series C8166 and HIV-1 experiment strain HIV-1IIIB are both from National Institutes of Health (NIH); cells are cultured in the RPMI-1640 complete culture medium containing 10% fetal bovine serum. HIV-1IIIB is prepared by using a conventional method, titration and calculation of TCID 50 of viruses are performed. Virus stock solution is subpackaged and stored at −70° C. Cells and viruses are cryopreserved and recovered according to conventional methods.
7. Inhibition Experiment for Cytopathic Effect (CPE) of HIV-1IIIB
8×10^5/ml C8166 cells were inoculated onto the 96-well cell culture plate containing 100 μl/well drug subjected to gradient multiple proportion dilution in an amount of 50 μl/well, and then 50 μl HIV-1IIIB was added to dilute the supernatant, 1300 TCID 50/well. 3 repetition wells were set. Meanwhile, normal cell control wells without drugs were set. TDF and dolutegravir were positive drug controls. Culture was performed for 3 days under the conditions of 37° C. and 5% CO2, and syncytia formation were counted under the inverted microscope (100×). EC50 (50% Effective Concentration) is the concentration of the drug when 50% of syncytia formation is inhibited.
(§2) According to experiment results, fitted curves are drawn using Origin2016, the 50% effective concentrations (EC50) of the samples inhibiting viruses, 50% cell growth inhibition concentrations (CC50) and TI (therapeutic index) value against HIV-1 activity are calculated based on Reed & Muench method, and the TI value is TI=CC50/EC50.
2. HIV-1 cytopathic cell inhibition rate (%)=(1−experiment well syncytia number/control well syncytia number)×100

HIV-1IIIB [2] = test: Inhibition of replication in HIV-1IIIB acute infectious C8166 cells (p24 antigen capture ELISA); assay type: cell-based; details: TI=CC50/EC50, EC50 from P24 experiment
Procedure: as §1
5. Measurement of HIV-1 p24 Antigen with p24 Antigen Capture ELISA Method
The 1 μg/plate of anti-mouse IgG Fc antibody was paved at 4° C. for overnight; the plate was sealed with 5% skimmed milk powder 4° C. for overnight; 100 μl/well mouse anti-p24 monoclonal antibody was added at 37° C. for 1 h; 100 μl/well (1:100) diluted rabbit anti-p24 polyclonal antibody (homemade) was added for 1 h at 37° C.; 100 μl/well (1:20000) diluted goat anti-rabbit IgG HRP was added for 1 h at 37° C.; OPD substrate reaction solution was added. After 10 min, 2M sulfuric acid was added to stop the reaction. The OD value was determined by Elx800 ELISA, and the wavelength was measured as 490/630 nm. The inhibition rate and EC50 of the drug on the p24 antigen replication and expression of HIV-1, namely, the concentration of the drug inhibiting 50% HIV-1 p24 antigen were calculated, namely, the concentration of the drug inhibiting 50% HIV-1 p24 antigen expression was calculated.
8. Inhibition Effect of Samples on Replication in Experiment Strain HIV-1IIIB Acute Infectious C8166 Cells
4×10^5 cells/ml C8166 cells and HIV-1IIIB MOI (multiplicity of infection=0.04) are infected for 2 h at 37° C., the obtained mixture is washed three times with PBS to remove free virus ions, 100 μl of cells are inoculated onto the 96-well plate containing 100 μl of to-be-detected compounds having different dilutions and cultured for 3 days under the conditions of 37° C. and 5% CO2. The cultural supernatant is centrifuged and then collected, and finally lysed and inactivated with 0.5% Triton X-100. The inhibition effect of the drug on HIV-1 replication is detected by using the p24 antigen capture ELISA method.
as §2
3. HIV-1 p24 antigen expression inhibition rate (%)=(1−experiment well OD value/control well OD value)×100

Compound: C[C@H]1CSC2Cn3cc(C(=O)NCc4ccc(F)cc4)c(=O)c(O)c3C(=O)N21 (stereo partly drawn) [Compound 66]
- Therapeutic index TI (HIV-1IIIB [1]): 266489.71
- Therapeutic index TI (HIV-1IIIB [2]): 240306.37

Compound: C[C@@H]1CCSC2Cn3cc(C(=O)NCc4ccc(F)cc4F)c(=O)c(O)c3C(=O)N21 (stereo partly drawn) [Compound 18]
- Therapeutic index TI (HIV-1IIIB [1]): 1380633.73
- Therapeutic index TI (HIV-1IIIB [2]): 1265674.33

Compound: CC[C@H]1CSC2Cn3cc(C(=O)NCc4ccc(F)cc4F)c(=O)c(O)c3C(=O)N21 (stereo partly drawn) [Compound 4]
- Therapeutic index TI (HIV-1IIIB [1]): 645083.10
- Therapeutic index TI (HIV-1IIIB [2]): 531374.79

Compound: C[C@@H]1CCO[C@H]2Cn3cc(C(=O)NCc4ccc(F)cc4F)c(=O)c(O)c3C(=O)N12 [Dolutegravir, reference compound]
- Therapeutic index TI (HIV-1IIIB [1]): 12464.48
- Therapeutic index TI (HIV-1IIIB [2]): 25285.71

Compound: C[C@@H]1CSC2Cn3cc(C(=O)NCc4ccc(F)cc4F)c(=O)c(O)c3C(=O)N21 (stereo partly drawn) [Compound 1]
- Therapeutic index TI (HIV-1IIIB [1]): 108973.00
- Therapeutic index TI (HIV-1IIIB [2]): 101255.11

Compound: O=C(NCc1ccc(F)cc1F)c1cn2c(c(O)c1=O)C(=O)N1C(C2)SC[C@@H]1c1ccccc1 (stereo partly drawn) [Compound 10]
- Therapeutic index TI (HIV-1IIIB [1]): 11822.00
- Therapeutic index TI (HIV-1IIIB [2]): 10855.77

Compound: CC(C)[C@H]1CSC2Cn3cc(C(=O)NCc4ccc(F)cc4F)c(=O)c(O)c3C(=O)N21 (stereo partly drawn) [Compound 6]
- Therapeutic index TI (HIV-1IIIB [1]): 124340.07
- Therapeutic index TI (HIV-1IIIB [2]): 108766.70

Compound: O=C(NCc1ccc(F)cc1F)c1cn2c(c(O)c1=O)C(=O)N1C(C2)SC[C@@H]1Cc1ccccc1 (stereo partly drawn) [Compound 12]
- Therapeutic index TI (HIV-1IIIB [1]): 54405.86
- Therapeutic index TI (HIV-1IIIB [2]): 48558.34

Compound: CC(C)C1CSC2Cn3cc(C(=O)NCc4ccc(F)cc4F)c(=O)c(O)c3C(=O)N21 (stereo not drawn) [Compound 5]
- Therapeutic index TI (HIV-1IIIB [1]): 99567.90
- Therapeutic index TI (HIV-1IIIB [2]): 85770.50

Compound: CC[C@@H]1CSC2Cn3cc(C(=O)NCc4ccc(F)cc4F)c(=O)c(O)c3C(=O)N21 (stereo partly drawn) [Compound 3]
- Therapeutic index TI (HIV-1IIIB [1]): 645083.10
- Therapeutic index TI (HIV-1IIIB [2]): 531374.79

Compound: CC(C)OC(=O)OCOP(=O)(CO[C@H](C)Cn1cnc2c(N)ncnc21)OCOC(=O)OC(C)C [TDF, tenofovir disoproxil fumarate, reference compound]
- Therapeutic index TI (HIV-1IIIB [1]): 13029.85
- Therapeutic index TI (HIV-1IIIB [2]): 19472.12

Compound: O=C(NCc1c(F)cc(F)cc1F)c1cn2c(c(O)c1=O)C(=O)N1C(C2)S[C@@H]2CC[C@H]1C2 (stereo partly drawn) [Compound 34]
- Therapeutic index TI (HIV-1IIIB [1]): 576365.66
- Therapeutic index TI (HIV-1IIIB [2]): 542355.51

Compound: CC(C)(C)[C@H]1CSC2Cn3cc(C(=O)NCc4ccc(F)cc4F)c(=O)c(O)c3C(=O)N21 (stereo partly drawn) [Compound 8]
- Therapeutic index TI (HIV-1IIIB [1]): 36786.07
- Therapeutic index TI (HIV-1IIIB [2]): 33714.91

Compound: C[C@H]1CSC2Cn3cc(C(=O)NCc4ccc(F)cc4F)c(=O)c(O)c3C(=O)N21 (stereo partly drawn) [Compound 2]
- Therapeutic index TI (HIV-1IIIB [1]): 723499.36
- Therapeutic index TI (HIV-1IIIB [2]): 6273353.27

Compound: CC(C)C[C@H]1CSC2Cn3cc(C(=O)NCc4ccc(F)cc4F)c(=O)c(O)c3C(=O)N21 (stereo partly drawn) [Compound 20]
- Therapeutic index TI (HIV-1IIIB [1]): 146569.64
- Therapeutic index TI (HIV-1IIIB [2]): 123467.60

Where a name gives a salt, the structure may show the parent alone.
